Results of unrelated studies side by side (data: NIAID ChemDB).

Common to all: tests in culture; species: Candida albicans

Lines come from different laboratories, so protocols vary.

| SMILES | strain | setting | method | read-out | value |
|---|---|---|---|---|---|
| CCCCCOc1ccc(-c2ccc(-c3ccc(C(=O)N[C@H]4CCCNC(=O)[C@@H]5C[C@H](N)CN5C(=O)[C@H](CC)NC(=O)C(CCc5ccc(O)cc5)NC(=O)[C@@H]5C[C@@H](O)CN5C(=O)[C@H]([C@@H](C)O)NC4=O)cc3)cc2)cc1 | ATCC 10231 |  |  | MIC | 0.1 µg/mL |
| C[C@@H](c1ncncc1F)[C@](O)(Cn1cncn1)c1ccc(F)cc1F | 15 isolates | pH 6 | broth dilution | MIC | 0.03 µg/mL |
| C[C@@H](N1CCN(Cc2cn(Cc3ccc(C(F)(F)F)cc3)c3ccccc23)CC1)[C@](O)(Cn1cncn1)c1ccc(F)cc1F | ATCC MYA-1003 |  | resazurin | MIC80 | 64 µg/mL |
| Cc1c(S(=O)(=O)c2ccccc2)[n+](=O)c2ccccc2n1[O-] | Clinical isolate 4 |  |  | MIC | 31.25 µg/mL |
| CCCCCCCCCCCOC[N+](C)(C)Cc1cc(N=Nc2ccc(Cl)cc2)ccc1O |  |  |  | MBC | 980 µM |
| CCCCCOc1ccc(-c2ccc(-c3ccc(C(=O)N[C@H]4CCCNC(=O)C5C[C@H](N)CN5C(=O)C(CCCN(CCN)CCN)NC(=O)C(CCc5ccc(O)cc5)NC(=O)C5C[C@@H](O)CN5C(=O)C(C(C)O)NC4=O)cc3)cc2)cc1 | ATCC CCH442 |  |  | MIC | 0.2 µg/mL |
| C=CCc1ccc(Cn2cc(CN3CCN([C@H](C)[C@](O)(Cn4cncn4)c4ccc(F)cc4F)CC3)c3cccc(F)c32)cc1 | ATCC 90028 |  | resazurin | MIC80 | 1 µg/mL |
| C[C@H](n1nnc(CCN2CCN(c3ccccn3)CC2)n1)[C@](O)(Cn1cncn1)c1ccc(F)cc1F | V-01-191A-261 (resistant) |  |  | MIC | 8 µg/mL |
| Cc1c(S(=O)(=O)c2ccccc2)[n+](=O)c2cc(Cl)ccc2n1[O-] | Clinical isolate 13 |  |  | MIC | 31.25 µg/mL |
| C[C@@H](n1cnc2ccc(Br)cc2c1=O)[C@](O)(Cn1cncn1)c1ccc(F)cc1F | 60 strains |  |  | MIC | 0.07 µg/mL |
| CCC(C)Oc1cc(O)cc(C(=O)O)c1 | Clinical isolates |  |  | MIC | 125–250 µg/mL |
| CCCCCCCn1cc[n+](COCCCCCCOC[n+]2ccn(CCCCCCC)c2)c1 | ATCC 90028 |  | agar diffusion | MIC100 | 5 µM |
| C=CCc1ccc(O)c(OC)c1 | 3021 |  | turbidity | MIC90 | 500 µg/mL |
| CCCCn1cc[n+](COCCCCOC[n+]2ccn(CCCC)c2)c1 | ATCC 90028 |  | agar diffusion | MIC100 | 173 µM |
| C[C@@H](N1CCN(Cc2cn(-c3ccc(F)cc3)c3cc(Cl)ccc23)CC1)[C@](O)(Cn1cncn1)c1ccc(F)cc1F | ATCC 64548 |  | resazurin | MIC80 | 0.125 µg/mL |
| C[C@@H](n1cnc2cc(OCC(F)(F)C(F)F)ccc2c1=O)[C@](O)(Cn1cncn1)c1ccc(F)cc1F | 406 strains |  |  | MIC | ≤0.03 µg/mL |
| CCC(C)CC(C)CCCCCCCCC(=O)N[C@H]1C[C@@H](O)[C@H](NCCN)NC(=O)[C@@H]2[C@@H](O)CCN2C(=O)[C@H]([C@H](O)CCN)NC(=O)[C@H]([C@H](O)[C@@H](O)c2ccc(O)cc2)NC(=O)[C@@H]2C[C@@H](O)CN2C(=O)[C@H]([C@@H](C)O)NC1=O | 10 isolates azole-resistant |  |  | MIC | 0.4 µg/mL |
| C[C@H](n1nnc(CCN2CCN(c3ccccc3Cl)CC2)n1)[C@](O)(Cn1cncn1)c1ccc(F)cc1F | V-01-191A-261 (resistant) |  |  | MIC | 8 µg/mL |
| Clc1ccc(CO/N=C2/c3ccc(Cl)cc3OCC2n2cncn2)cc1 | ATCC 10231 |  |  | MIC | 32 µg/mL |
| CCCCCCCCCCCCn1cc[n+](COCCOC[n+]2ccn(CCCCCCCCCCCC)c2)c1 | ATCC 90028 |  | agar diffusion | MIC100 | 16 µM |
| CCCOc1ccc(C(=O)NN)c(O)c1 | Clinical isolates |  |  | MIC | 125–250 µg/mL |
| CC1CC(=O)N(CCCCc2ccccc2)C1=O | ATCC 10231 |  | broth dilution / turbidity | MIC | 62.5 µg/mL |
| Cc1ccc(N=Nc2ccc(O)c(C[N+](C)(C)COCCCC3CCCCC3)c2)cc1 |  |  |  | MIC | 272 µM |
| CCCCCOc1ccc(-c2ccc(C(=O)N[C@H]3CCCNC(=O)C4C[C@H](N)CN4C(=O)C(C(C)O)NC(=O)C(CCc4ccc(O)cc4)NC(=O)C4C[C@@H](O)CN4C(=O)C(C(C)O)NC3=O)cc2)cc1 | ATCC 62376 |  |  | MIC | 0.39 µg/mL |
| CCCCCCOc1ccc(O)c(C(=O)NN)c1 | Clinical isolates |  |  | MIC | 125–250 µg/mL |
| C[C@H](n1nnnc1CCN1CCN(c2ccc(Cl)cc2)CC1)[C@](O)(Cn1cncn1)c1ccc(F)cc1F |  |  |  | MIC | 2 µg/mL |
| CCCCCCCOCn1c[n+](CNC(=O)c2cccnc2)c2ccccc21 | ATCC 10231 |  |  | MIC | 1200 µM |
| CCCCCCCCOC[N+](C)(C)Cc1cc(N=Nc2ccc(C)cc2)ccc1O |  |  |  | MBC | 69 µM |
| C[C@@H](n1cnc2ccc(F)cc2c1=O)[C@](O)(Cn1cncn1)c1ccc(F)cc1F | 406 strains |  |  | MIC | 0.07 µg/mL |
| Clc1ccccc1C(c1ccccc1)(c1ccccc1)n1ccnc1 | 10 isolates | pH 6 | broth dilution | EC90 | 0.125 µg/mL |
| CN(CCCC#CC(C)(C)C)c1cccc2c1CCC(=O)N2 | Clinical isolate 3 |  |  | MIC | 15.6 µg/mL |
| C[C@H]1[C@H](O)[C@@H](C)/C=C/C=C/C=C/C=C/C=C/C=C/C=C/[C@H](O[C@@H]2O[C@H](C)[C@@H](O)[C@H](N)[C@@H]2O)C[C@@H]2O[C@](O)(C[C@@H](O)C[C@@H](O)CC[C@H](O)[C@@H](O)C[C@@H](O)CC(=O)O[C@H]1C)C[C@H](O)[C@H]2C(=O)O | SC14059 (azole-resistant) |  |  | MIC | 0.25 µg/mL |
| Clc1ccc(COC(Cn2ccnc2)c2ccc(Cl)cc2Cl)c(Cl)c1 | 10 isolates | pH 5 | broth dilution | MIC | 0.125 µg/mL |
| CCCCCOc1ccc(-c2ccc(-c3ccc(C(=O)N[C@H]4CCCNC(=O)C5CCCN5C(=O)C(C(C)O)NC(=O)C(CCc5ccc(O)cc5)NC(=O)C5C[C@@H](O)CN5C(=O)C(C(C)O)NC4=O)cc3)cc2)cc1 | ATCC CCH442 |  |  | MIC | 6.25 µg/mL |
| C[C@@H](n1cnc2cc(-n3ncnn3)ccc2c1=O)[C@](O)(Cn1cncn1)c1ccc(F)cc1F | 76 strains |  |  | MIC | 5 µg/mL |
| C[C@H](n1nnc(CCN2CCN(c3ccc(Cl)cc3)CC2)n1)[C@](O)(Cn1cncn1)c1ccc(F)cc1F |  |  |  | MIC | 2 µg/mL |
| CCCCCCCC(Cn1ccnc1)c1ccccc1Cl |  |  |  | MIC | 100 µg/mL |
| CCCCCCCCCCOCn1c[n+](CNC(=O)c2cccnc2)c2ccccc21 | ATCC 10231 |  |  | MIC | 1091 µM |
| Cc1ccc(C(C)C)cc1O | ATCC 10231 |  |  | MIC | 0.16 µg/mL |
| CC[C@@H]([C@H](C)O)n1ncn(-c2ccc(N3CCN(c4ccc(OC[C@@H]5CO[C@@](Cn6cncn6)(c6ccc(F)cc6F)C5)cc4)CC3)cc2)c1=O | 10 strains (fluconazole-resistant) |  |  | MIC90 | 1 µg/mL |
| c1ccc(CO/N=C2\c3ccccc3OCC2n2cnnc2)cc1 | ATCC 10231 |  |  | MIC | 64 µg/mL |
| CCC(C)n1ncn(-c2ccc(N3CCN(c4ccc(OC[C@H]5CO[C@](Cn6cncn6)(c6ccc(Cl)cc6Cl)O5)cc4)CC3)cc2)c1=O | A28200 |  |  | MIC | 0.015 µg/mL |
| CCCCCCCCC(Cn1ccnc1)c1ccc(Cl)cc1Cl |  |  |  | MIC | 10 µg/mL |
| CCCCCCCCCCCn1cc[n+](COCCOC[n+]2ccn(CCCCCCCCCCC)c2)c1 | ATCC 90028 |  | agar diffusion | MIC100 | 17 µM |
| CCCCCCCOC[N+](C)(C)Cc1cc(N=Nc2ccc(C)cc2)ccc1O |  |  |  | MBC | 576 µM |
| CCCCCCCn1cc[n+](COCCCCCOC[n+]2ccn(CCCCCCC)c2)c1 | ATCC 90028 |  | agar diffusion | MIC100 | 94 µM |
| CCCOc1ccc(O)c(C(=O)NN)c1 | Clinical isolates |  |  | MIC | 125–250 µg/mL |
| C[C@@H]1C(=O)N(c2ccccc2)C(=O)[C@@H]1C | ATCC 10231 |  | broth dilution / turbidity | MIC | 31.3 µg/mL |
| C[C@@H](N1CCN(Cc2cn(Cc3ccc(Cl)cc3Cl)c3c(F)cccc23)CC1)[C@](O)(Cn1cncn1)c1ccc(F)cc1F | ATCC 36082 |  | resazurin | MIC80 | 0.125 µg/mL |
| CC[C@@H]([C@H](C)O)n1ncn(-c2ccc(N3CCN(c4ccc(OC[C@@H]5CO[C@@](Cn6cncn6)(c6ccc(F)cc6F)C5)cc4)CC3)cc2)c1=O | Isolate CA-9 |  |  | MIC | >4 µg/mL |
| CCOCn1c[n+](CNC(=O)c2cccnc2)c2ccccc21 | ATCC 10231 |  |  | MIC | >1443 µM |
| Brc1ccc(CO/N=C2/c3ccccc3OCC2n2cncn2)cc1 | ATCC 10231 |  |  | MFC | 64 µg/mL |
| CCCCCCCCCOCn1c[n+](CNC(=O)c2cccnc2)c2ccccc21 | ATCC 10231 |  |  | MIC | 562 µM |
| OC(Cn1cncn1)(Cn1cncn1)c1ccc(F)cc1F | 76 strains |  |  | MIC | 40 µg/mL |
| OC(Cn1cncn1)(Cn1cncn1)c1ccc(F)cc1F | Isolate M27-T-micro | 48 h |  | MIC50 | 1.56 µg/mL |
| Clc1ccc(CO/N=C2\c3ccccc3OCC2n2cncn2)cc1Cl | ATCC 10231 |  |  | MIC | 16 µg/mL |
| CC[C@@H]([C@H](C)O)n1ncn(-c2ccc(N3CCN(c4ccc(OC[C@@H]5CO[C@@](Cn6cncn6)(c6ccc(F)cc6F)C5)cc4)CC3)cc2)c1=O | 15 isolates | pH 4 | broth dilution | MIC | 0.03 µg/mL |
| CCCCCOc1ccc(N(C)CCN(C)c2ccc(C(=O)N[C@H]3CCCNC(=O)C4C[C@H](N)CN4C(=O)C(C(C)O)NC(=O)C(CCc4ccc(O)cc4)NC(=O)C4C[C@@H](O)CN4C(=O)C(C(C)O)NC3=O)cc2)cc1 | ATCC CCH442 |  |  | MIC | 1.56 µg/mL |
| CC1CC(=O)N(CCCc2ccccc2)C1=O | ATCC 10231 |  | broth dilution / turbidity | MIC | 125 µg/mL |
| C[C@H](n1cnc2cc3ccccc3cc2c1=O)[C@](O)(Cn1cncn1)c1ccc(F)cc1F | 406 strains |  |  | MIC | ≤0.03 µg/mL |
| CCC(C)C(Cn1ccnc1)c1ccc(Cl)cc1Cl |  |  |  | MIC | 100 µg/mL |
| Nc1[nH]c(=O)ncc1F | 50 isolates |  |  | MIC90 | 0.64 µg/mL |
| C[C@@H](n1cnc2cc(N3CCOCC3)ccc2c1=O)[C@](O)(Cn1cncn1)c1ccc(F)cc1F | 60 strains |  |  | MIC | 1.25 µg/mL |
| COC(/C=C/c1ccccc1)=C1/C(=O)C=C(C)C1=O | ATCC 90028 |  |  | MFC | 1.56 µg/mL |
| Oc1ccc2c(c1)CCc1ccc(cc1)Oc1cc(ccc1O)CCc1cccc(O)c1-2 | BWP17-DPP3-GFP |  | broth dilution | MIC80 | 16 µg/mL |
| C[C@@H](N1CCN(Cc2cn(Cc3cccc(C(F)(F)F)c3)c3ccccc23)CC1)[C@](O)(Cn1cncn1)c1ccc(F)cc1F | ATCC 64548 |  | resazurin | MIC80 | 0.125 µg/mL |
| CCCCCCCCCCOC[n+]1cccc(NCn2nnc3ccccc32)c1 | ATCC 10231 |  |  | MIC | 144 µM |
| CCCC(Cn1ccnc1)c1ccccc1Cl |  |  |  | MIC | >100 µg/mL |
| CCC(C)n1ncn(-c2ccc(N3CCN(c4ccc(OC[C@H]5CO[C@](Cn6cncn6)(c6ccc(Cl)cc6Cl)O5)cc4)CC3)cc2)c1=O | Isolate CA-10 |  |  | MIC | >8 µg/mL |
| C[C@@H](n1cnc2cc(Sc3ccccc3)ccc2c1=O)[C@](O)(Cn1cncn1)c1ccc(F)cc1F | 406 strains |  |  | MIC | ≤0.03 µg/mL |
| CC1C(=O)N(CCCCc2ccccc2)C(=O)C1C | ATCC 10231 |  | broth dilution / turbidity | MIC | 125 µg/mL |
| O=[n+]1c(Sc2ccccc2)c(CBr)n([O-])c2ccccc21 | Clinical isolate 8 |  |  | MIC | 31.25 µg/mL |
| OC(Cn1cncn1)(Cn1nnc(CCN2CCN(c3ccccc3Cl)CC2)n1)c1ccc(F)cc1F |  |  |  | MIC | 2 µg/mL |
| C[C@@H](n1cnc2cc(Cl)ccc2c1=O)[C@](O)(Cn1cncn1)c1ccccc1F | 406 strains |  |  | MIC | ≤0.03 µg/mL |

A second listing of 6 rows from above:

{"SMILES": "CCCOc1ccc(O)c(C(=O)NN)c1", "strain": "Clinical isolates", "read-out": "MIC", "value": "125–250 µg/mL"}
{"SMILES": "CCOCn1c[n+](CNC(=O)c2cccnc2)c2ccccc21", "strain": "ATCC 10231", "read-out": "MIC", "value": ">1443 µM"}
{"SMILES": "C[C@H](n1nnc(CCN2CCN(c3ccccc3Cl)CC2)n1)[C@](O)(Cn1cncn1)c1ccc(F)cc1F", "strain": "V-01-191A-261 (resistant)", "read-out": "MIC", "value": "8 µg/mL"}
{"SMILES": "CCCCCCCCCCOC[n+]1cccc(NCn2nnc3ccccc32)c1", "strain": "ATCC 10231", "read-out": "MIC", "value": "144 µM"}
{"SMILES": "COC(/C=C/c1ccccc1)=C1/C(=O)C=C(C)C1=O", "strain": "ATCC 90028", "read-out": "MFC", "value": "1.56 µg/mL"}
{"SMILES": "CC[C@@H]([C@H](C)O)n1ncn(-c2ccc(N3CCN(c4ccc(OC[C@@H]5CO[C@@](Cn6cncn6)(c6ccc(F)cc6F)C5)cc4)CC3)cc2)c1=O", "strain": "Isolate CA-9", "read-out": "MIC", "value": ">4 µg/mL"}

An empty or dashed field is not shown. Two numbers with a dash give a range or band. A number after MIC or MFC names an inhibition level or a share of isolates. ECn: concentration that inhibits the pathogen or its effect by n%.